Pooled drug test results. Numbers come from NIAID ChemDB, via PubChem.

Shared fields: target-level tests

Fold resistance has wild type as its base.

{"smiles": "COc1cc(CCNc2ccc3nc(N)nc(N)c3c2Cl)cc(OC)c1OC", "organism": "Cryptosporidium parvum", "strain": "TYPE 2", "protein": "Dihydrofolate reductase", "read-out": "IC50", "result": ">10 µM"}
{"smiles": "O=C(O)c1ccc(N2C(=O)C(=Cc3ccc(C#Cc4ccccc4)o3)SC2=S)cc1", "organism": "Bovine viral diarrhea virus", "protein": "NS5 polymerase", "read-out": "IC50", "result": "≤1 µM"}
{"smiles": "Nc1nc(N)c2c(n1)CCC(Cc1ccc(Cl)c(Cl)c1)C2", "organism": "Cryptosporidium parvum", "strain": "TYPE 2", "protein": "Dihydrofolate reductase", "read-out": "IC50", "result": "0.065 µM"}
{"smiles": "Nc1nc2c(ncn2[C@H]2CO[C@@H](COP(=O)(O)OP(=O)(O)OP(=O)(O)O)O2)c(=O)[nH]1", "organism": "HIV", "mutations": "RT-K65R K103N Q151M", "protein": "Reverse transcriptase", "method": "radiometric", "read-out": "fold resistance", "result": "7.8"}
{"smiles": "CC(C)(C)c1ccc(-c2cncc(N3CCN(c4cnccn4)CC3)n2)cc1", "organism": "Cytomegalovirus", "protein": "UL97 kinase", "read-out": "IC50", "result": "<100 µM"}
{"smiles": "O=C(O)CCc1ccc(N2C(=O)C(=Cc3ccc(-c4ccc(Cl)c(Cl)c4)o3)SC2=S)cc1", "organism": "Bovine viral diarrhea virus", "protein": "NS5 polymerase", "read-out": "IC50", "result": "≤1 µM"}
{"smiles": "COc1cccc(-c2cncc(N3CCN(c4ccccn4)CC3)n2)c1", "organism": "Cytomegalovirus", "protein": "UL97 kinase", "read-out": "inhibition", "tested at": "1 µM", "result": "<50%"}
{"smiles": "N#Cc1cccc(-c2cc(NS(=O)(=O)c3ccccn3)cs2)c1", "organism": "Hepatitis C virus", "protein": "NS3 ATPase", "read-out": "IC50", "result": "<5 µM"}
{"smiles": "COc1ccc(OC)c(NCc2cnc3nc(N)nc(N)c3n2)c1", "organism": "Cryptosporidium parvum", "strain": "TYPE 1", "protein": "Dihydrofolate reductase", "read-out": "IC50", "result": "3.2 µM"}
{"smiles": "Cc1ccc(N2CCN(c3cncc(-c4cc(C)cc(C)c4)n3)CC2)cc1", "organism": "Cytomegalovirus", "protein": "UL97 kinase", "read-out": "inhibition", "tested at": "10 µM", "result": ">15%"}
{"smiles": "Cc1ccc(-c2ccc(C=C3SC(=S)NC3=O)s2)cc1", "organism": "Bovine viral diarrhea virus", "protein": "NS5 polymerase", "read-out": "IC50", "result": "≤1 µM"}
{"smiles": "O=C(O)c1cc2nc(-c3ccc(F)cc3)cc(-c3cccc(F)c3)n2n1", "organism": "Hepatitis C virus", "protein": "RNA-dependent RNA polymerase", "read-out": "IC50", "result": ">10 µM"}
{"smiles": "COc1cc(CN2CCc3nc(N)nc(N)c3C2)cc(OC)c1OC", "organism": "Cryptosporidium parvum", "strain": "TYPE 2", "protein": "Dihydrofolate reductase", "read-out": "IC50", "result": ">10 µM"}
{"smiles": "O=C(O)c1ccc(N2C(=O)C(=Cc3ccc(-c4ccc(F)c(F)c4)o3)SC2=S)cc1", "organism": "Bovine viral diarrhea virus", "protein": "NS5 polymerase", "read-out": "IC50", "result": "≤1 µM"}
{"smiles": "COc1ccc(-c2cncc(N3CCN(c4ccc(C(F)(F)F)cc4)CC3)n2)cc1OC", "organism": "Cytomegalovirus", "protein": "UL97 kinase", "read-out": "inhibition", "tested at": "10 µM", "result": ">15%"}
{"smiles": "Cc1cc(F)ccc1-c1cnc2c(C(=O)O)cnn2c1C1CCCCC1", "organism": "Hepatitis C virus", "protein": "RNA-dependent RNA polymerase", "read-out": "IC50", "result": ">10 µM"}
{"smiles": "CCOc1cccc2nc(N)nc(N)c12", "organism": "Cryptosporidium parvum", "strain": "TYPE 1", "protein": "Dihydrofolate reductase", "read-out": "IC50", "result": "0.35 µM"}
{"smiles": "CCCC(=O)N(Cc1ccc(Cl)cc1)c1cc(-c2ccccc2)sc1C(=O)O", "organism": "Hepatitis C virus", "protein": "NS3 ATPase", "read-out": "IC50", "result": "5–20 µM"}
{"smiles": "CSc1ccc(-c2cncc(N3CCN(c4ccccc4)CC3)n2)cc1", "organism": "Cytomegalovirus", "protein": "UL97 kinase", "read-out": "IC50", "result": "<10 µM"}
{"smiles": "O=C(O)c1cc2nc(-c3ccc(Cl)cc3)cc(Nc3ccc(N4CCOCC4)cc3)n2n1", "organism": "Hepatitis C virus", "protein": "RNA-dependent RNA polymerase", "read-out": "IC50", "result": ">10 µM"}
{"smiles": "CC(C)N(C(=O)c1cc(F)c(Cl)cc1F)c1cc(-c2ccccc2)sc1C(=O)O", "organism": "Hepatitis C virus", "protein": "NS3 ATPase", "read-out": "IC50", "result": "5–20 µM"}
{"smiles": "O=C(O)c1cc2nc(-c3ccc(Cl)cc3Cl)cc(-c3ccsc3)n2n1", "organism": "Hepatitis C virus", "protein": "RNA-dependent RNA polymerase", "read-out": "IC50", "result": ">10 µM"}
{"smiles": "Cc1ccc(C(=O)N(c2cc(-c3cccc(C)c3)sc2C(=O)O)C(C)C)cc1", "organism": "Hepatitis C virus", "protein": "NS3 ATPase", "read-out": "IC50", "result": "<5 µM"}
{"smiles": "COc1cc(N(C)Cc2cccc3nc(N)nc(N)c23)cc(OC)c1OC", "organism": "Cryptosporidium parvum", "strain": "TYPE 1", "protein": "Dihydrofolate reductase", "read-out": "IC50", "result": ">10 µM"}
{"smiles": "COc1ccc(-c2cc(-c3ccc(F)cc3)nc3cc(C(=O)O)nn23)cc1", "organism": "Hepatitis C virus", "protein": "RNA-dependent RNA polymerase", "read-out": "IC50", "result": ">10 µM"}
{"smiles": "c1ccc(N2CCN(c3cncc(-c4ccsc4)n3)CC2)nc1", "organism": "Cytomegalovirus", "protein": "UL97 kinase", "read-out": "inhibition", "tested at": "1 µM", "result": "<50%"}
{"smiles": "O=C(O)c1cc2nc(-c3ccc(Cl)cc3)cc(-c3ccsc3)n2n1", "organism": "Hepatitis C virus", "protein": "RNA-dependent RNA polymerase", "read-out": "IC50", "result": ">10 µM"}
{"smiles": "NCc1ccc(-c2cncc(N3CCN(C(=O)c4ccco4)CC3)n2)cc1", "organism": "Cytomegalovirus", "protein": "UL97 kinase", "read-out": "inhibition", "tested at": "10 µM", "result": ">15%"}
{"smiles": "Cc1cc(-c2ccc(C=C3SC(=S)NC3=O)o2)oc1C", "organism": "Bovine viral diarrhea virus", "protein": "NS5 polymerase", "read-out": "IC50", "result": "≤1 µM"}
{"smiles": "O=C(O)c1cc2nc(-c3ccc(OCc4ccccc4)cc3)c(-c3ccccc3)cn2n1", "organism": "Hepatitis C virus", "protein": "RNA-dependent RNA polymerase", "read-out": "IC50", "result": ">10 µM"}

Repeating the first 4 entries:

smiles,organism,strain,mutations,protein,method,read-out,tested at,result
COc1cc(CCNc2ccc3nc(N)nc(N)c3c2Cl)cc(OC)c1OC,Cryptosporidium parvum,TYPE 2,-,Dihydrofolate reductase,-,IC50,-,>10 µM
O=C(O)c1ccc(N2C(=O)C(=Cc3ccc(C#Cc4ccccc4)o3)SC2=S)cc1,Bovine viral diarrhea virus,-,-,NS5 polymerase,-,IC50,-,≤1 µM
Nc1nc(N)c2c(n1)CCC(Cc1ccc(Cl)c(Cl)c1)C2,Cryptosporidium parvum,TYPE 2,-,Dihydrofolate reductase,-,IC50,-,0.065 µM
Nc1nc2c(ncn2[C@H]2CO[C@@H](COP(=O)(O)OP(=O)(O)OP(=O)(O)O)O2)c(=O)[nH]1,HIV,-,RT-K65R K103N Q151M,Reverse transcriptase,radiometric,fold resistance,-,7.8

An empty or dashed field is not shown. Percent inhibition refers to the dose given; in toxicity tests it is the harm to the cells. ICn is the concentration giving n% inhibition. Two numbers with a dash give a range or band. Conditions beyond the fields shown may differ between rows.